Test system: Legionella pneumophila
Test: Anti-infective activity against Legionella pneumophila harboring GFP in Acanthamoeba castellanii assessed as inhibition of bacterial replication at 30 uM by spectrophotometric method relative to vehicle control

## Cc1ccc(/C=C2\SC(=S)N([C@@H](Cc3c[nH]c4ccccc34)C(=O)O)C2=O)c2ccccc12
  inhibition (INH): 89%

From ChEMBL document CHEMBL3861953 (J Med Chem, 2016)
